The record followed here is patent US20040191887A1 (WISCONSIN ALUMNI RESEARCH FOUNDATION, published 2004).

The target in the test is botulinum neurotoxin B (Clostridium botulinum, UniProt P10844 2-441; P10844 442-1291). Put plainly: GST pull-down with gangliosides, immunoblot (FIG. 2A).

B1: GST-syt II 61-267 (receptor)
chain: IPLPPWALIAMAVVAGLLLLTCCFCICKKCCCKKKKNKKEKGKGMKNAMNMKDMKGGQDDDDAETGLTEGEGEGEEEKEPENLGKLQFSLDYDFQANQLTVGVLQAAELPALDMGGTSDPYVKVFLLPDKKKKYETKVHRKTLNPAFNETFTFKVPYQELAGKTLVMAIYDFDRFSKHDIIGEVKVPMNTVDLGQPIEEWRDLQGGE
As to B1, the binding result is on record as “no binding”.
